{"source": "PubChem BioAssay AID504761 (Drosophila RNAi Screening Center, 2011)", "screen": "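Genome-wide fly cell screen for genes dengue virus requires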 (primary screen)", "system": "D.Mel-2 cells from Drosophila", "reagents": "long dsRNA against Drosophila genes", "treatment": "infection with dengue virus type 2; dose and infection time not stated", "detection": "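Cells stained for dengue envelope protein and imaged; percent of infected cells per well on duplicate plates, ranked by infection, with stained nuclei counted for cell number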", "reading the numbers": "infection score: higher = more virus-infected cells; cell count: higher = more cells in the well", "hit rule": "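Very low infection ranking in both replicate wells (chance probability at most 0.065), then a retest showing infection dropped 1.5-fold or more at p below 0.05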", "meaning of the calls": "active = confirmed: knock-down lowers infection; inactive = not picked or not confirmed", "note": "The screen tested about 22,000 reagents; below is a random part of those with a known target gene and a result. Of all reagents, 116 (0.52%) were called active. 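Calls depend on retest data that are not deposited; infection was ranked per plate without normalising between plates; the unit of the infection score is not given.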 Raw values are not corrected between plates. Unmarked entries are inactive. Not stated in the record: the amount of reagent, the time to read-out."}
{"target gene": "CG18540 (GeneID 37097)", "dsRNA": "DRSC06767", "infection score, replicate 1": 12.3, "infection score, replicate 2": 13.4, "cell count, replicate 1": 5081, "cell count, replicate 2": 5610}
{"target gene": "CG18540 (GeneID 37097)", "dsRNA": "DRSC26991", "infection score, replicate 1": 9.01, "infection score, replicate 2": 6.98, "cell count, replicate 1": 6682, "cell count, replicate 2": 5787}
{"target gene": "CG14400 (GeneID 35354)", "dsRNA": "DRSC02384", "infection score, replicate 1": 15.1, "infection score, replicate 2": 6.97, "cell count, replicate 1": 5638, "cell count, replicate 2": 7220}
{"target gene": "CG7744 (GeneID 37239)", "dsRNA": "DRSC07036", "infection score, replicate 1": 29.5, "infection score, replicate 2": 5.03, "cell count, replicate 1": 5928, "cell count, replicate 2": 716}
{"target gene": "CG15202 (GeneID 32052)", "dsRNA": "DRSC19649", "infection score, replicate 1": 7.11, "infection score, replicate 2": 10.5, "cell count, replicate 1": 6495, "cell count, replicate 2": 6795}
{"target gene": "hpRNA:CR18854 (GeneID 10178800)", "dsRNA": "DRSC02702", "infection score, replicate 1": 26.1, "infection score, replicate 2": 20.8, "cell count, replicate 1": 5537, "cell count, replicate 2": 5461}
{"target gene": "hpRNA:CR18854 (GeneID 10178800)", "dsRNA": "DRSC29809", "infection score, replicate 1": 4.15, "infection score, replicate 2": 6.97, "cell count, replicate 1": 6429, "cell count, replicate 2": 6309}
{"target gene": "CG17746 (GeneID 38400)", "dsRNA": "DRSC08521", "infection score, replicate 1": 4.14, "infection score, replicate 2": 8.71, "cell count, replicate 1": 6683, "cell count, replicate 2": 5855}
{"target gene": "CG17746 (GeneID 38400)", "dsRNA": "DRSC23333", "infection score, replicate 1": 1.13, "infection score, replicate 2": 5.43, "cell count, replicate 1": 6931, "cell count, replicate 2": 6649}
{"target gene": "CG33461 (GeneID 2768840)", "dsRNA": "DRSC22892", "infection score, replicate 1": 0.93, "infection score, replicate 2": 0.68, "cell count, replicate 1": 5942, "cell count, replicate 2": 6439}
{"target gene": "CG33461 (GeneID 2768840)", "dsRNA": "DRSC26007", "infection score, replicate 2": 15.5, "cell count, replicate 1": 613, "cell count, replicate 2": 5545}

3 entries from above, arranged by “cell count, replicate 1”, low to high.
{"target gene": "CG18540 (GeneID 37097)", "dsRNA": "DRSC06767", "infection score, replicate 1": 12.3, "infection score, replicate 2": 13.4, "cell count, replicate 1": 5081, "cell count, replicate 2": 5610}
{"target gene": "CG14400 (GeneID 35354)", "dsRNA": "DRSC02384", "infection score, replicate 1": 15.1, "infection score, replicate 2": 6.97, "cell count, replicate 1": 5638, "cell count, replicate 2": 7220}
{"target gene": "CG18540 (GeneID 37097)", "dsRNA": "DRSC26991", "infection score, replicate 1": 9.01, "infection score, replicate 2": 6.98, "cell count, replicate 1": 6682, "cell count, replicate 2": 5787}

Additional records follow:
{"target gene": "mdlc (GeneID 42397)", "dsRNA": "DRSC15690", "infection score, replicate 1": 7.74, "infection score, replicate 2": 6.9, "cell count, replicate 1": 6462, "cell count, replicate 2": 6410}
{"target gene": "mdlc (GeneID 42397)", "dsRNA": "DRSC28632", "infection score, replicate 1": 19.9, "infection score, replicate 2": 2.27, "cell count, replicate 1": 4204, "cell count, replicate 2": 572}
{"target gene": "CG2915 (GeneID 35754)", "dsRNA": "DRSC06842", "infection score, replicate 1": 3.48, "infection score, replicate 2": 5.39, "cell count, replicate 1": 5694, "cell count, replicate 2": 6033}
{"target gene": "CG17739 (GeneID 36333)", "dsRNA": "DRSC06689", "infection score, replicate 1": 4.56, "infection score, replicate 2": 7.34, "cell count, replicate 1": 6097, "cell count, replicate 2": 6379}
{"target gene": "CG17739 (GeneID 36333)", "dsRNA": "DRSC26518", "infection score, replicate 1": 2.19, "infection score, replicate 2": 6.33, "cell count, replicate 1": 5977, "cell count, replicate 2": 5956}
{"target gene": "CG7906 (GeneID 39575)", "dsRNA": "DRSC10928", "infection score, replicate 1": 5.03, "infection score, replicate 2": 11.3, "cell count, replicate 1": 6100, "cell count, replicate 2": 5280}
{"target gene": "CG7906 (GeneID 39575)", "dsRNA": "DRSC29526", "infection score, replicate 1": 12.3, "infection score, replicate 2": 22.4, "cell count, replicate 1": 4299, "cell count, replicate 2": 4417}
{"target gene": "cib (GeneID 31359)", "dsRNA": "DRSC18660", "infection score, replicate 1": 16.8, "infection score, replicate 2": 1.48, "cell count, replicate 1": 3657, "cell count, replicate 2": 6770}
{"target gene": "EcR (GeneID 35540)", "dsRNA": "DRSC04906", "infection score, replicate 1": 12.8, "infection score, replicate 2": 9.52, "cell count, replicate 1": 6094, "cell count, replicate 2": 6490}
{"target gene": "EcR (GeneID 35540)", "dsRNA": "DRSC04910", "infection score, replicate 1": 14.7, "infection score, replicate 2": 43.4, "cell count, replicate 1": 4351, "cell count, replicate 2": 4768}
